Data from US5997871A (priority 1996, dated 1999).

Legend:
[1] = system: CD4+ T cells; experiment: CD4+ T cell levels in HIV patients treated with hCG preparations; type: in vivo, human; conditions: for CD4+ T cells: patient PH-SPBE
[2] = Weight change in patients treated with hCG preparations; type: in vivo, human
[3] = system: HIV-1
[4] = system: KS tumors and cells; experiment: Overall anti-KS activity of hCG preparations and peptides in vitro and in vivo
[5] = system: HIV; experiment: HIV assays (anti-viral effects)
[6] = patient PH-OJ (on RT inhibitors), KS-C, 12,500 IU/week, Rx 31+ weeks, PreRX 14, M4
[7] = patient PH-VE (on RT inhibitors), KS-C, 12,500 IU/week, Rx 80+ weeks, PreRX 105, M4
[8] = patient PH-VE, KS-C, 30,000 IU/week (M20), PreRX 105, M20 (text: 68 weeks)
[9] = patient PH-OJ (on RT inhibitors), KS-C, 12,500 IU/week, RT-PCR, PreRX 100,000
[10] = patient PH-VE (on RT inhibitors), KS-C, 12,500 IU/week, NASBA, PreRX 230,000
[11] = patient PG-4 (no other antiviral therapy), KS-C, 35,000 IU/week, Rx 16+ weeks, PreRX 47, M4
[12] = patient PH-SPBE (on RT inhibitors), KS-C, 25,000 IU/week, NASBA, PreRX 1,490,000, before Ritonavir was added

Substance: Pregnyl: commercial hCG preparation from Organon, Inc.
- CD4/mm^3 Rx ([1]; patient PH-GF, KS-C, 12,500 IU/week, Rx 18+ weeks, PreRX 3, M2): 35 /mm^3
- CD4/mm^3 Rx ([1]; patient PH-GRX (on RT inhibitors), KS-C, 12,500 IU/week, Rx 17+ weeks, PreRX 97, M2): 89 /mm^3
- CD4/mm^3 Rx ([1]; patient PH-LE, KS-VC, 30,000 IU/week, Rx 12+ weeks, PreRX <5, M1): < 5 /mm^3
- CD4/mm^3 Rx ([1]; patient PH-MP, KS-C, 30,000 IU/week, Rx 24+ weeks, PreRX 360, M3): 505 /mm^3
- CD4/mm^3 Rx [1, 6]: 3 /mm^3
- CD4/mm^3 Rx ([1]; patient PH-RF (on RT inhibitors), KS-V, 15,000 IU/week, Rx 12+ weeks, PreRX 0, M3): 17 /mm^3
- CD4/mm^3 Rx ([1]; patient PH-SP (on RT inhibitors), KS-VC, 30,000 IU/week, Rx 8+ weeks, PreRX 6, M1): 5 /mm^3
- CD4/mm^3 Rx [1, 7]: 160 /mm^3
- CD4/mm^3 Rx [1, 8]: 204 /mm^3
- CD4/mm^3 Rx ([1]; patient PO-BO (on RT inhibitors), KS-C, 12,500 IU/week, Rx 6+ weeks, PreRX 12, M1.5): 12 /mm^3
- CD4/mm^3 Rx ([1]; patient PO-CJP (on RT inhibitors), KS-C, 12,500 IU/week, Rx 6+ weeks, PreRX 14, M1.5): 14 /mm^3
- CD4/mm^3 Rx ([1]; patient PO-DU (on RT inhibitors), KS-VC, 12,500 IU/week, Rx 37+ weeks, PreRX 5, M2): 10 /mm^3
- CD4/mm^3 Rx ([1]; patient PO-FY (on RT inhibitors), KS-C, 12,500 IU/week, Rx 6+ weeks, PreRX 180, M2): 202 /mm^3
- CD4/mm^3 Rx ([1]; patient PO-GE (on RT inhibitors), KS-VC, 15,000 IU/week, Rx 48+ weeks, PreRX 10, M4): 10 /mm^3
- CD4/mm^3 Rx ([1]; patient PO-LC (on RT inhibitors), KS-VC, 12,500 IU/week, Rx 12+ weeks, PreRX 70, M3): 72 /mm^3
- CD4/mm^3 Rx ([1]; patient PO-RB (on RT inhibitors), KS-VC, 12,500 IU/week, Rx 4+ weeks, PreRX 50, 1M): 35 /mm^3
- Weight gain ([2]; patient PH-GF, KS-C, 12,500 IU/week, Rx 18+ weeks): +2 Kg
- Weight gain ([2]; patient PH-GRX, KS-C, 12,500 IU/week, Rx 17+ weeks, (diet)): -3 kg
- Weight gain ([2]; patient PH-MP, KS-C, 30,000 IU/week, Rx 24+ weeks): +3 Kg
- Weight gain ([2]; patient PH-OJ, KS-C, 12,500 IU/week, Rx 31+ weeks): +3 Kg
- Weight gain ([2]; patient PH-RF, KS-V, 15,000 IU/week, Rx 12+ weeks): +1 Kg
- Weight gain ([2]; patient PH-SP, KS-VC, 30,000 IU/week, Rx 8+ weeks): 0 kg
- Weight gain ([2]; patient PH-VE, KS-C, 12,500 IU/week, Rx 80+ weeks): +6 Kg
- Weight gain ([2]; patient PO-BO, KS-C, 12,500 IU/week, Rx 6+ weeks): +1.5 Kg
- Weight gain ([2]; patient PO-CJP, KS-C, 12,500 IU/week, Rx 6+ weeks): +1 Kg
- Weight gain ([2]; patient PO-DU, KS-VC, 12,500 IU/week, Rx 37+ weeks): +2 Kg
- Weight gain ([2]; patient PO-FY, KS-C, 12,500 IU/week, Rx 6+ weeks): +1.5 Kg
- Weight gain ([2]; patient PO-GE, KS-VC, 15,000 IU/week, Rx 48+ weeks): 0 kg
- Weight gain ([2]; patient PO-LC, KS-VC, 12,500 IU/week, Rx 12+ weeks): +1.5 Kg
- Weight gain ([2]; patient PO-RB, KS-VC, 12,500 IU/week, Rx 4+ weeks): +1 Kg
- Viral Load Rx ([3]; patient PH-DP (on RT inhibitors), No KS, 30,000 IU/week, Rx 8+ weeks, TCID, PreRX 100, 1 mo): 1
- Viral Load Rx ([3]; patient PH-GF, KS-C, 12,500 IU/week, NASBA, PreRX 1,100,000): 150,000 copies
- Viral Load Rx [3, 9]: 2,500 copies
- Viral Load Rx ([3]; patient PH-RF (on RT inhibitors), KS-V, 15,000 IU/week, NASBA (lower detection limit 4,000 copies), PreRX 69,000): < 4000 copies
- Viral Load Rx [3, 10]: 11,000 copies
- Viral Load Rx ([3]; patient PO-DU (on RT inhibitors), KS-VC, 12,500 IU/week, NASBA, PreRX 420,000): 300,000 copies

Substance: APL: commercial crude hCG preparation from Wyeth-Ayerst Laboratories
- CD4/mm^3 Rx ([1]; patient PG-1 (on RT inhibitors), KS-C, 35,000 IU/week, Rx 16+ weeks, PreRX 63, M4): 170 /mm^3
- CD4/mm^3 Rx ([1]; patient PG-3 (on RT and protease inhibitors), KS-C, 35,000 IU/week, Rx 16+ weeks, PreRX 37, M4): 48 /mm^3
- CD4/mm^3 Rx [1, 11]: 424 /mm^3
- CD4/mm^3 Rx ([1]; patient PG-6 (on RT and protease inhibitors), KS-C, 35,000 IU/week, Rx 12+ weeks, PreRX 29, M3): 21 /mm^3
- CD4/mm^3 Rx ([1]; patient PG-7, KS-C, 30,000 IU/week, Rx 10+ weeks, PreRX 108): 213 /mm^3
- CD4/mm^3 Rx ([1]; patient PG-8, KS-C, 30,000 IU/week, Rx 12 weeks, PreRX 787): 678 /mm^3
- CD4/mm^3 Rx ([1]; patient PG-9, KS-C, 30,000 IU/week, Rx 11+ weeks, PreRX 123): 218 /mm^3
- CD4/mm^3 Rx ([1]; patient PG-10 (on RT inhibitors), KS-C, 30,000 IU/week, Rx 12 weeks, PreRX 82): 86 /mm^3
- CD4/mm^3 Rx ([1]; patient PG-11 (on RT inhibitors), KS-C, 30,000 IU/week, Rx 4.5 weeks, PreRX 218): 361 /mm^3
- CD4/mm^3 Rx ([1]; patient PG-12, KS-C, 30,000 IU/week, Rx 19+ weeks, PreRX 22): 46 /mm^3
- CD4/mm^3 Rx ([1]; patient PG-15 (no other therapy), KS-C, 70,000 IU/week, Rx 8 weeks, PreRX 388): 483 /mm^3
- Weight gain ([2]; patient PG-1, KS-C, 35,000 IU/week, Rx 16+ weeks): -0.9 kg
- Weight gain ([2]; patient PG-3, KS-C, 35,000 IU/week, Rx 16+ weeks): +1.8 Kg
- Weight gain ([2]; patient PG-4, KS-C, 35,000 IU/week, Rx 16+ weeks): +1.4 Kg
- Weight gain ([2]; patient PG-6, KS-C, 35,000 IU/week, Rx 12+ weeks): +3.2 Kg
- Weight gain ([2]; patient PG-7, KS-C, 30,000 IU/week, Rx 10+ weeks): +4.5 Kg
- Weight gain ([2]; patient PG-8, KS-C, 30,000 IU/week, Rx 12 weeks): +2.3 Kg
- Weight gain ([2]; patient PG-9, KS-C, 30,000 IU/week, Rx 11+ weeks): -5.0 kg
- Weight gain ([2]; patient PG-10, KS-C, 30,000 IU/week, Rx 12 weeks): +2.3 Kg
- Weight gain ([2]; patient PG-11, KS-C, 30,000 IU/week, Rx 4.5 weeks): +5.4 Kg
- Weight gain ([2]; patient PG-12, KS-C, 30,000 IU/week, Rx 19+ weeks): +10.0 Kg
- Weight gain ([2]; patient PG-15, KS-C, 70,000 IU/week, Rx 8 weeks): +1.8 Kg
- Viral Load Rx ([3]; patient PG-1 (on RT inhibitors), KS-C, 35,000 IU/week, Roche Amplicor, PreRX 75,000): 1,700 copies
- Viral Load Rx ([3]; patient PG-3 (on RT and protease inhibitors), KS-C, 35,000 IU/week, Roche Amplicor, PreRX 52,000): 40,000 copies
- Viral Load Rx ([3]; patient PG-4, KS-C, 35,000 IU/week, Roche Amplicor, PreRX 80,900): 55,000 copies
- Viral Load Rx ([3]; patient PG-6 (on RT and protease inhibitors), KS-C, 35,000 IU/week, Roche Amplicor, PreRX 62,500): 98,000 copies
- Viral Load Rx ([3]; patient PG-8, KS-C, 30,000 IU/week, Roche Amplicor, PreRX 60.760): 22,313 copies
- Viral Load Rx ([3]; patient PG-10 (on RT inhibitors), KS-C, 30,000 IU/week, Roche Amplicor, PreRX 25,364): 6,777 copies
- Viral Load Rx ([3]; patient PG-11 (on RT inhibitors), KS-C, 30,000 IU/week, Roche Amplicor, PreRX 661): 260 copies
- Viral Load Rx ([3]; patient PG-15 (no other therapy), KS-C, 70,000 IU/week, Roche Amplicor, PreRX 6,162): 22,510 copies

Substance: human chorionic gonadotropin [hCG]
- CD4/mm^3 Rx [1, 11]: 424 /mm^3
- rise in CD4+ T cell levels ([1]; patient PG-4, no other antiviral therapy, 47 to 424 mm^3): 10 fold
- CD4/mm^3 Rx [1, 6]: did not experience an increase
- CD4+ T cells ([1]; Ritonavir therapy added at 22 weeks to ongoing hCG): over 300 mm^3
- CD4+ T cells ([1]; systemic 25,000 then 40,000-60,000 IU per week, before Ritonavir): stabilized in the mid-100 mm^3 s
- CD4/mm^3 Rx [1, 7]: 160 /mm^3
- CD4/mm^3 Rx [1, 8]: 204 /mm^3
- weight gain in treated patients overall ([2]; hCG-treated patients, even some in the most advanced stages of HIV infection): Weight gain was recorded in a substantial portion of patients
- Weight gain ([2]; patient PH-GA, KS-C, 15,000 IU/week, Rx 12+ weeks): 0 kg
- last viral load measurement ([3]; patient PG2, Roche Amplicor, 10,496 copies before hCG, started Norvir after hCG): 15,542 copies
- drop in viral load ([3]; patient PG-1, on reverse transcriptase inhibitors at enrollment): 1 log
- last viral load measurement ([3]; patient PG-16, 47,931 copies before hCG, started Ritonavir after hCG): 370 copies
- last viral load measurement ([3]; patient PG-18, 3673 copies before hCG, started Crixivan after hCG): 1742 copies
- reduction in viral load ([3]; patient PH-DP, CDC stage B1 HIV disease without KS, TCID assay, no change in preexisting anti-viral therapy): 2 log
- Viral Load Rx ([3]; patient PH-GA, KS-C, 15,000 IU/week, Rx 12+ weeks, RT-PCR, PreRX 2,500): 500 copies
- viral load ([3]; patient PH-JPV, Roche Amplicor, 500,000 copies before hCG, week 4 of hCG alone): 4,900,000 copies
- viral load ([3]; patient PH-JPV, following indinavir (Crixivan) added after hCG induced pulmonary response): undetectable viral load
- Viral Load Rx [3, 9]: 2500 copies
- Viral Load Rx [3, 12]: 700,000 copies
- viral load ([3]; patient PH-SPBE, NASBA, after Ritonavir added to ongoing hCG treatment, 770,000 copies before): 120,000 copies
- viral load ([3]; patient PH-SPBE, NASBA, after Ritonavir added to ongoing hCG treatment, 770,000 copies before, listed as hCG preparation): reduced further
- Viral Load Rx [3, 10]: 11,000 copies
- decrease in viral load ([3]; patient PH-VE, NASBA, 230,000 to 11,000 copies, low dose intralesional then subcutaneous injections for 6 weeks): 1.5 log

Substance: PA: codes P and A together: patient received both Pregnyl and APL hCG preparations
- CD4/mm^3 Rx ([1]; patient PH-SPBE (on RT inhibitors), KS-C, 25,000 IU/week, Rx 29+ weeks, PreRX 48, M3): 174 /mm^3
- Weight gain ([2]; patient PH-SPBE, KS-C, 25,000 IU/week, Rx 29+ weeks): +1 Kg
- Viral Load Rx [3, 12]: 770,000 copies

Substance: CR127: highly purified hCG preparation (heterodimer)
- activities of native hCG preparations (anti-KS, anti-viral, pro-hematopoietic) mimicked or retained [4]: did not retain these activities
- activity in the HIV assays [5]: inactive

Read-outs that look alike come from different tables or passages of the source.
